Target: m1 (UniProt P26948 22-170, biotin (NHS-LC-LC biotinylation kit))
Assay: FACS

B1: m9 (protein)
chain 1: QVQLQQWGAGLLKPSETLSLTCAVYGGSFSGYYWSWIRQPPGKGLEWIGEINHSGNTNYNPSLKSRVTISVDTSKNQFSLQLNSVTPEDTAVYYCARTRGYFDLWGRGTLVTVSS
chain 2: QPVLTQSPSVSVSPGQTASITCSGDKLGGRYASWYQQKPGQSPVLVIYQDTKRPSGIPERFSGSNSGNTATLTISGTQAMDEADYYCQSWDSSAAVFGTGTKLTVL
Kd: 36.3 nM
